The nature of the test: Tetrathionate reaction with cyanide to thiocyanate (ferric nitrate, absorption at 460 nm). The settings on record: excess cyanide, 37° C., pH 11, thiosulfate 5 mM, up to 60 min incubation.

As for `O=S(O)(O)=S`, the “reaction with cyanide (thiocyanate production)” value is, setting by setting: (listed as Thiosulfate) “did not react”; (listed as thiosulfate) “no thiocyanate production was found”.

Values taken from patent US12161664B2, “Tetrathionate for cyanide and methylmercaptan poisoning” (dated 2024).
